Results published in PMC4721062, “Oxadiazole-2-oxides may have other functional targets, in addition to SjTGR, through which they cause mortality in Schistosoma japonicum” (Parasites & Vectors, 2016).

Key:
[1] = Nitric oxide (NO) release on incubation with cysteine; conditions: 10 μM compound incubated with 5 mM cysteine, 50 min, room temperature
SjTGR = assay: NO production on incubation with SjTGR alone or SjTGR + NADPH; format: biochemical, Schistosoma japonicum; conditions: 10 μM compound, 50 min; for NO production, SjTGR + NADPH: 15 nM SjTGR + 100 μM NADPH; for NO production, SjTGR: 15 nM SjTGR alone
[2] = test system: S. japonica adult worm homogenate supernatant; assay: NO production on incubation with worm homogenate supernatant; design: species or system Schistosoma japonicum; conditions: 10 μM compound, worm homogenate (100 μg), 50 min

SMILES	NO released [1]	NO production, SjTGR + NADPH (SjTGR)	NO production, SjTGR (SjTGR)	NO production, Worm homogenate supernatant [2]
N#Cc1c(-c2ccc(OCCCBr)cc2)no[n+]1[O-] [Compound 13]	8.6 ± 0.4 µM	7.5 ± 1.0 µM	5.2 ± 0.3 µM	8.6 ± 1.1 µM
O=C(C1CCCCC1)N1CC(=O)N2CCc3ccccc3C2C1 (stereo not shown) [PZQ, praziquantel, reference compound]		7.3 ± 0.8 µM	7.2 ± 0.4 µM	12.1 ± 2.1 µM
N#Cc1c(-c2ccc(Br)cc2)no[n+]1[O-] [Compound 7c]	9.0 ± 0.5 µM	9.2 ± 0.1 µM	6.0 ± 0.1 µM	10.9 ± 1.2 µM
C#CCOc1ccc(-c2no[n+]([O-])c2C#N)cc1 [Compound 20]	8.8 ± 0.7 µM	6.3 ± 0.5 µM	4.0 ± 0.5 µM	7.8 ± 1.1 µM
N#Cc1c(-c2ccc(CBr)cc2)no[n+]1[O-] [Compound 22]	9.0 ± 0.1 µM	7.3 ± 1.5 µM	4.2 ± 0.3 µM	7.5 ± 0.5 µM
COc1ccc(-c2no[n+]([O-])c2CO)cc1 [Compound 4a]	did not release NO			
N#Cc1c(-c2ccc(OCc3ccccc3)cc2)no[n+]1[O-] [Compound 19]	did not release NO			
Cc1ccc(-c2no[n+]([O-])c2CO)cc1 [Compound 4b]	did not release NO	6.5 ± 0.9 µM	3.8 ± 0.7 µM	7.6 ± 0.7 µM
N#Cc1c(-c2ccc(COc3ccc(C=O)cc3)cc2)no[n+]1[O-] [Compound 26]	did not release NO	6.2 ± 1.2 µM	3.0 ± 0.8 µM	9.8 ± 1.8 µM
N#Cc1c(-c2ccc(COc3ccccc3)cc2)no[n+]1[O-] [Compound 23]	did not release NO	3.5 ± 0.3 µM	3.2 ± 0.1 µM	7.7 ± 1.4 µM
N#Cc1c(-c2ccc(OC/C=C/CBr)cc2)no[n+]1[O-] [Compound 16]	8.3 ± 0.0 µM	5.0 ± 0.3 µM	2.5 ± 0.4 µM	9.4 ± 1.2 µM
